Experimental data: PubChem BioAssay AID504761 (Drosophila RNAi Screening Center, 2011)

- Screen: 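Genome-wide fly cell screen for genes dengue virus requires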 (primary screen)
- System: D.Mel-2 cells from Drosophila
- Reagent: long dsRNA against Drosophila genes
- Conditions: infection with dengue virus type 2; dose and infection time not stated
- Detection: 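Per well on two replicate plates, imaging gave the percent of cells positive for viral envelope protein, ranked by infection, and a nuclear count of cells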
- Reading the numbers: infection score: higher = more virus-infected cells; cell count: higher = more cells in the well
- Rule for the call: 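Very low infection ranking in both replicate wells (chance probability at most 0.065), then a retest showing infection dropped 1.5-fold or more at p below 0.05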
- Calls: active = confirmed: knock-down lowers infection; inactive = not picked or not confirmed
The deposit covers about 22,000 reagents; this is a random part of those with a known target gene and a result. Of all reagents, 116 (0.52%) got an active call. 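Calls depend on retest data that are not deposited; infection was ranked per plate without normalising between plates; the unit of the infection score is not given.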 Raw values vary from plate to plate and are shown uncorrected. Unmarked entries are inactive. Reagents against one gene are numbered here. Not all columns of the deposit are shown. No sequences are given here. Not stated in the record: the amount of reagent, the time to read-out.

predicted target	reagent no.	infection score, replicate 1	infection score, replicate 2	cell count, replicate 1
smp-30 (Senescence marker protein-30)	1	7.12	11.9	6699
smp-30 (Senescence marker protein-30)	2	7.49	5.16	6699
gol (goliath)	1	15.4	31.6	6166
CG2691	1	4.14	3.24	6180
idc (identity crisis)	1	9.09	6.13	6324
CG31898	1	2.91	1.48	6091
CG12643	1	3.58	36.4	6447
CG12643	2	4.26	5.03	6385
l(1)sc (lethal of scute)	1	0.61	6.42	6426
l(1)sc (lethal of scute)	2	18	13.5	4758
CG32152	1	2.25	12.2	6541
CG14100	1	1.51	5.53	6706
CG30177	1	2.09	3.27	6510
CG10011	1	2.84	2.64	5633
Nin (Ninein)	1	2.93	0.94	5733
CG43689	1	8.03	4.11	6652
CG43689	2	1.49	6.34	6161
CG43689	3	2.44	0.74	5564

6 of these entries, reformatted.
{"predicted target": "idc (identity crisis)", "reagent no.": 1, "infection score, replicate 1": 9.09, "infection score, replicate 2": 6.13, "cell count, replicate 1": 6324}
{"predicted target": "CG31898", "reagent no.": 1, "infection score, replicate 1": 2.91, "infection score, replicate 2": 1.48, "cell count, replicate 1": 6091}
{"predicted target": "CG12643", "reagent no.": 1, "infection score, replicate 1": 3.58, "infection score, replicate 2": 36.4, "cell count, replicate 1": 6447}
{"predicted target": "CG12643", "reagent no.": 2, "infection score, replicate 1": 4.26, "infection score, replicate 2": 5.03, "cell count, replicate 1": 6385}
{"predicted target": "l(1)sc (lethal of scute)", "reagent no.": 1, "infection score, replicate 1": 0.61, "infection score, replicate 2": 6.42, "cell count, replicate 1": 6426}
{"predicted target": "l(1)sc (lethal of scute)", "reagent no.": 2, "infection score, replicate 1": 18, "infection score, replicate 2": 13.5, "cell count, replicate 1": 4758}

More results follow:
predicted target	reagent no.	infection score, replicate 1	infection score, replicate 2	cell count, replicate 1
CG13747	1	16.3	9.78	5730
CG12912	1	0.76	1.53	6077
CG14229	1	4.93	3.7	5818
CG14229	2	1.21	5.15	6504
CG8012	1	4.79	3.82	5987
Edc3 (Enhancer of decapping 3)	1	11.3	9.48	5883
Edc3 (Enhancer of decapping 3)	2	11.4	10.4	6481
CG10252	1	17.5	28.4	5845
rtet (tetracycline resistance)	1	3.88	4.2	6165
Myo31DF (Myosin 31DF)	1	6.43	12	6625
Myo31DF (Myosin 31DF)	2	8.4	8.52	6928
Myo31DF (Myosin 31DF)	3	8.67	4.54	5998
CG13073	1	2.43	18.3	6207
CG13073	2	6.66	16.3	5807
Atf3 (Activating transcription factor 3)	1	1.39	11.5	5845
Lsm10	1	2.95	5.34	7231
schuy (schumacher-levy)	1	4.32	2.1	6204
schuy (schumacher-levy)	2	13.9	9.77	5290
sbb (scribbler)	1	0.92	4.88	5682
sbb (scribbler)	2	13	26.9	5579
sbb (scribbler)	3	24.1	15.3	5426
